Article PMC7104723 (Cell Research, 2020)

Sequences of proteins named here, by UniProt entry; tags and fusion partners are left off. Residues count along the entry.
UniProt K9N5Q8, 994-1044 limits assumed: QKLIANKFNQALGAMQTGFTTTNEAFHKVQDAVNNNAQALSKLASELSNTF

How the values were obtained:
SARS-HR1 = SARS-HR1 (Severe acute respiratory syndrome coronavirus, UniProt P59594); test: Circular dichroism thermal denaturation of peptide/SARS-HR1 complex; conditions: CD, 10 μM in PBS, thermal denaturation at 222 nm, 5 °C/min (Fig. S4)
MERS-HR1 = MERS-HR1 (Middle East respiratory syndrome-related coronavirus, UniProt K9N5Q8); test: Circular dichroism thermal denaturation of peptide/MERS-HR1 complex; conditions: CD, 10 μM in PBS, thermal denaturation at 222 nm, 5 °C/min (Fig. S4)

## CC[C@H](C)[C@H](NC(=O)[C@H](C)NC(=O)[C@H](CCC(=O)O)NC(=O)[C@H](CCC(=O)O)NC(=O)[C@H](CC(C)C)NC(=O)[C@H](CCCCN)NC(=O)[C@H](CCCCN)NC(=O)[C@H](CCSC)NC(=O)[C@H](CCC(=O)O)NC(=O)[C@H](Cc1ccc(O)cc1)NC(=O)[C@H](CCC(=O)O)NC(=O)[C@H](CC(C)C)NC(=O)[C@H](CC(=O)O)NC(=O)[C@H](CC(C)C)NC(=O)[C@H](Cc1ccccc1)NC(=O)[C@@H](NC(=O)[C@@H](NC(=O)[C@H](CC(N)=O)NC(=O)[C@@H](NC(=O)[C@H](CCC(N)=O)NC(=O)[C@H](CC(=O)O)NC(=O)[C@H](CC(C)C)NC(=O)[C@@H](N)CO)[C@@H](C)CC)C(C)C)[C@@H](C)O)C(=O)N[C@@H](CCCCN)C(=O)N[C@@H](CCCCN)C(=O)N[C@@H](CC(C)C)C(=O)N[C@@H](CCC(=O)O)C(=O)N[C@@H](CCC(=O)O)C(=O)N[C@@H](CO)C(=O)N[C@@H](Cc1ccc(O)cc1)C(=O)N[C@H](C(=O)N[C@@H](CC(=O)O)C(=O)N[C@@H](CC(C)C)C(=O)N[C@@H](CCCCN)C(=O)N[C@@H](CCC(=O)O)C(=O)N[C@@H](CC(C)C)C(=O)NCC(=O)N[C@@H](CO)C(=O)NCC(=O)N[C@@H](CO)C(=O)NCC(=O)NCCOCCOCCOCCOCCC(=O)N[C@@H](CSCC(=O)O[C@H]1CC[C@@]2(C)C(=CC[C@H]3[C@@H]4CC[C@H]([C@H](C)CCCC(C)C)[C@@]4(C)CC[C@@H]32)C1)C(N)=O)[C@@H](C)CC [EK1C4]
SARS-HR1
  Stability and Tm of complex with SARS-HR1 compared with EK1 complex: higher stability and increased Tm values
MERS-HR1
  Stability and Tm of complex with MERS-HR1 compared with EK1 complex: higher stability and increased Tm values
